Experimental data as given in article PMC11904993, “Humanized Candida and NanoBiT Assays Expedite Discovery of Bdf1 Bromodomain Inhibitors With Antifungal Potential” (Advanced Science, 2025).
A number of entries come with more than one value. This is not the full list of results. The source may hold further records. Values that stand side by side differ for a reason that is not stated; they may come from other doses, times, organisms or constructs than stated.

Sequences of proteins named here, by UniProt entry; tags and fusion partners are left off. Residues count along the entry.
UniProt Q6FWV7, 100-228 limits assumed: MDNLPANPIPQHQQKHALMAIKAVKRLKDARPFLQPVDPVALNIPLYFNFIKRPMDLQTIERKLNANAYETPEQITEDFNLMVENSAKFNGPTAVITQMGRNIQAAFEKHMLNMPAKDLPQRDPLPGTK

Target: CgBdf1 BD1 (Candida glabrata, UniProt Q6FWV7)
Assay: HTRF assay, inhibition of H4ac4 peptide binding
Parameters: species or system C. glabrata
Settings: Fig 1D/2A original data; single experiments Exp1-3

Row | Compound | pIC50 CgBD1
1 | CCCN(CC1CC1)C(=O)C1C(c2cc(OC)c(OC)c(OC)c2)c2cc3c(cc2C(O)C1CO)OCO3 (centres unmarked) | 6.449, 6.662, 6.248
2 | COc1cccc(NC(=O)Cn2ccc3ccc(-c4nnc(C)o4)cc32)c1 | 5.375, 6.029, 5.387
